Pooled drug test results. Numbers come from NIAID ChemDB, via PubChem.

All rows: whole-cell or culture tests; organism: Aspergillus flavus; measure: zone

Zones are inhibition diameters on agar.

structure,strain,method,tested at,value
O=C(NN1C(=O)CSC1C1C(c2ccccc2)=Nc2ccc(Cl)cc21)N1c2ccccc2C=Cc2ccccc21,MTCC-1973,agar diffusion,1000 µg/mL,13 mm
OC(Cn1cncn1)(Cn1cncn1)c1ccc(F)cc1F,,,30 µg/mL,99 mm
CC(=Nc1cccc2cccc(N=C(C)c3c(O)ccc4c(C)cc(=O)oc34)c12)c1c(O)ccc2c(C)cc(=O)oc12,MTCC 1883,,100 µg/mL,6 mm
COc1ccc(-c2nn(-c3ccccc3)cc2C2CC(c3ccc(Cl)cc3Cl)=NN2c2ccccc2)cc1,,,1000 µg/mL,0 mm
O=C(CNC(=O)c1ccncc1)NN1C(=O)/C(=C/c2cccc(Br)c2)SC1c1cccc(Br)c1,,agar diffusion,50 µg/mL,13.4 mm
Clc1ccc(C2=NN(c3ccccc3)C(c3cn(-c4ccccc4)nc3-c3ccccc3)C2)c(Cl)c1,,,1000 µg/mL,0 mm
O=c1[nH]c(-c2cc3ccccc3oc2=O)nc2c1C(c1ccccc1Cl)c1ccc3ccccc3c1O2,,agar diffusion / agar,150 µg/mL,16 mm
O=C(CNC(=O)c1ccncc1)NN1C(=O)/C(=C/c2ccccc2[N+](=O)[O-])SC1c1ccccc1[N+](=O)[O-],,agar diffusion,50 µg/mL,21 mm
Cc1ccc2c(c1)C(C1SCC(=O)N1NC(=O)N1c3ccccc3C=Cc3ccccc31)C(c1ccccc1)=N2,MTCC-1973,agar diffusion,500 µg/mL,2 mm
O=C(CNC(=O)c1ccncc1)NN1C(=O)/C(=C/c2ccccc2Br)SC1c1ccccc1Br,,agar diffusion,100 µg/mL,15.6 mm
COc1cc(C2c3ccc4ccccc4c3Oc3nc(-c4cc5ccccc5oc4=O)[nH]c(=O)c32)ccc1O,,agar diffusion / agar,100 µg/mL,7 mm
O=C(CNC(=O)c1ccncc1)NN1C(=O)/C(=C/c2ccc(Cl)cc2)SC1c1ccc(Cl)cc1,,agar diffusion,100 µg/mL,20.5 mm
COc1ccc(C2c3ccc4ccccc4c3Oc3nc(-c4cc5ccccc5oc4=O)[nH]c(=O)c32)cc1OC,,agar diffusion / agar,150 µg/mL,21 mm
Clc1ccc(-c2nn(-c3ccccc3)cc2C2CC(c3ccc(-c4ccccc4)cc3)=NN2c2ccccc2)cc1,,,500 µg/mL,3 mm
O=C(CNC(=O)c1ccncc1)NN1C(=O)CSC1c1ccc([N+](=O)[O-])cc1,,agar diffusion,100 µg/mL,25 mm
O=c1[nH]c(-c2cc3ccccc3oc2=O)nc2c1C(c1ccc(Cl)cc1)c1ccc3ccccc3c1O2,,agar diffusion / agar,150 µg/mL,15 mm
O=C(CNC(=O)c1ccncc1)NN1C(=O)CSC1c1ccccc1Br,,agar diffusion,50 µg/mL,14 mm
COc1ccc(-c2nn(-c3ccccc3)cc2C2CC(c3ccc(SC)cc3)=NN2c2ccccc2)cc1,,,1000 µg/mL,0 mm
O=C(CNC(=O)c1ccncc1)NN1C(=O)CSC1c1cccc(Br)c1,,agar diffusion,50 µg/mL,15 mm
Cc1ccc2c(c1)C(C=NNC(=O)N1c3ccccc3C=Cc3ccccc31)C(c1ccccc1)=N2,MTCC-1973,agar diffusion,500 µg/mL,2 mm
CSc1ccc(C2=NN(c3ccccc3)C(c3cn(-c4ccccc4)nc3-c3ccccc3)C2)cc1,,,500 µg/mL,0 mm

Blank or dashed fields: not listed here. Rows are shuffled and stem from different studies.